Experimental findings from PubChem BioAssay AID1259311 (ICCB-Longwood Screening Facility, Harvard Medical School, 2017) are described below.

The list shows a part of the results, in another mix than the full data. Some salts and complexes are drawn in separate pieces, as the source files them; their charges need not balance. Calls of active or inactive are those of the source. Cut-off read from the data, not from the text of the source: active = inhibition above about 85%; inactive = the rest.

The assay in a line: growth inhibition of S. aureus RN4220, primary screen, OD600 (AID 1259311).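 Note: plate controls were untreated cells for no effect and reference antibiotic for full effect.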 The following applies: OD600, 16 h, hits give high values.
A word on the inhibition: it is the drop in the measured response relative to a control, in per cent. `Nc1ccc([As](=O)(O)c2ccc([N+](=O)[O-])cc2)cc1`: the inhibition is inactive: 6.26%.

On to `C(Cc1nn[nH]n1)Cc1nn[nH]n1`, for which the inhibition is inactive: 3.46%.

Regarding `O=C(OC1CN2CCC1CC2)c1cccc(Cl)c1` (stereo unspecified), the inhibition was inactive: 3.07%.

For the compound `O=[N+]([O-])c1ncn(CCn2cnc([N+](=O)[O-])n2)n1`, the inhibition is inactive: -4.73%.

For `CC(=O)NC(SC(=S)N(C)C)C(Cl)(Cl)Cl` (stereo unspecified), the inhibition was inactive: 13.8%.

As for `O=[N+]([O-])c1ccc(OP2(=O)COCCO2)cc1` (stereo unspecified), the inhibition is inactive: 2.07%.

Take `O=[As](O)(c1ccccc1)c1ccc(O)cc1`: the inhibition was inactive: 1.58%.

Turning to `O=[N+]([O-])c1cc([N+](=O)[O-])c(NCC2CCS(=O)(=O)C2)c([N+](=O)[O-])c1` (stereo unspecified), the inhibition was active: 86.9%.

Regarding `Cc1cc(-c2cccc3ccccc23)c(C)cn1.O=[N+]([O-])c1cc([N+](=O)[O-])c(O)c([N+](=O)[O-])c1`, the inhibition was inactive: 1.97%.

On to `CN(C(=O)Cc1ccc(Cl)c(Cl)c1)C1CC[C@@]2(CCCO2)CC1N1CCCC1` (stereo partly specified), for which the inhibition was inactive: 3.64%.

Consider `CCN(C(=NP(=O)(N1CCOCC1)N1CCOCC1)N1CCOCC1)c1ccc(OC)cc1`, for which the inhibition is inactive: 5.93%.

As to `O=P(Nc1nc2ccccc2s1)(c1ccccc1)c1ccccc1`, the inhibition was inactive: 2.12%.

Consider `COc1ccc(NP(C)(=O)Oc2ccccc2OC)cc1` (stereo unspecified), for which the inhibition is inactive: 6.53%.

`COc1ccc(OP(C)(=O)Nc2cccc(Br)c2)cc1` (stereo unspecified): the inhibition was inactive: 3.68%.

For `CC(C)C=NN=C(N)N[N+](=O)[O-]`, the inhibition is inactive: -0.161%.

With `COc1ccc(N)c([N+](=O)[O-])c1[N+](=O)[O-]`, the inhibition is inactive: 3.69%.

For `C=CCN1CCN(CCOC(=O)C(O)(c2ccccc2)c2ccccc2)CC1`, the inhibition is inactive: -2%.

For the compound `O=P(Nc1ccccn1)(c1ccc(Br)cc1)c1ccc(Br)cc1`, the inhibition is inactive: 1.88%.

Take `CN(C)C1(CNC(=O)c2ccc(Cl)c(S(N)(=O)=O)c2)CCCCC1`: the inhibition is inactive: 0.559%.

For the compound `NS(=O)(=O)c1cccc(NC(=O)COC(=O)C(O)(c2ccccc2)c2ccccc2)c1`, the inhibition is inactive: -1.53%.

For `O=[As](O)(c1cccs1)c1cccs1`, the inhibition is inactive: 11.7%.

As for `Cc1ccc(OCC(=O)OC2CN3CCC2CC3)cc1` (stereo unspecified), the inhibition was inactive: 3.8%.

In the case of `CP(=O)(Nc1ccc(SC(F)(F)F)cc1)Oc1ccccc1` (stereo unspecified), the inhibition is inactive: 1.33%.

As for `Nc1cccc([As](=O)(O)c2ccccc2)c1`, the inhibition was inactive: 1.31%.

For the compound `CCCOc1ccc(NP(C)(=O)Oc2ccc(Cl)cc2)cc1` (stereo unspecified), the inhibition is inactive: 2.97%.

With `O=P1(Nc2ncccn2)COc2ccccc2OC1`, the inhibition is inactive: 4.44%.

`COc1ccccc1OP(C)(=O)Nc1c(C)cccc1C` (stereo unspecified): the inhibition is inactive: 2.88%.

`CN1CCCCC1COC(=O)C1(O)c2ccccc2CCc2ccccc21` (stereo unspecified): the inhibition is inactive: 4.09%.

For the compound `O=C(/C=C/c1ccccc1)OC1CN2CCC1CC2` (stereo unspecified), the inhibition was inactive: 4.08%.

On to `CCCC1OP(=O)(Nc2ccccc2)OCC1CC` (stereo unspecified), for which the inhibition was inactive: 5.74%.

Take `O=[N+]([O-])c1cc([N+](=O)[O-])c(Nc2nnnn2CCO)c([N+](=O)[O-])c1`: the inhibition was inactive: 32.3%.

Regarding `CN(C)C1(CNC(=O)c2ccc(S(C)(=O)=O)cc2)CCCCC1`, the inhibition is inactive: 3.75%.

In the case of `CCOC(=O)C(CC)C1=NC(C)(C)Cc2ccccc21.O=[N+]([O-])c1cc([N+](=O)[O-])c(O)c([N+](=O)[O-])c1` (stereo unspecified), the inhibition was inactive: 3.4%.

Turning to `COc1cc(C2NCCC3(OCCO3)C2(C)C)cc(OC)c1OC.O=[N+]([O-])c1cc([N+](=O)[O-])c(O)c([N+](=O)[O-])c1` (stereo unspecified), the inhibition was inactive: 5.86%.

On to `Cc1nn(-c2ccccc2)c2c1P(=O)(N1CCOCC1)N(C)C(c1ccccc1)=N2` (stereo unspecified), for which the inhibition was inactive: 2.49%.

For the compound `CC1CCC(C(C)C)C(OP(=O)(Nc2ccccn2)c2ccccc2)C1` (stereo unspecified), the inhibition was inactive: 5.55%.

For `Cc1ccc(C(=O)OC2CN3CCC2CC3)cc1` (stereo unspecified), the inhibition was inactive: 5.58%.

For the compound `O=[As](O)(c1ccccc1Br)c1ccccc1Br`, the inhibition was inactive: -1.53%.

On to `Cc1nc2ccc3ccccc3c2s1.O=[N+]([O-])c1cc([N+](=O)[O-])c(O)c([N+](=O)[O-])c1`, for which the inhibition was inactive: 8.37%.

For the compound `CC1(CBr)Cn2c(nc3ccccc3c2=O)S1` (stereo unspecified), the inhibition was inactive: 5.98%.

Consider `COc1ccccc1CNC(=O)COC(=O)C(O)(c1ccccc1)c1ccccc1`, for which the inhibition is inactive: 4.01%.

Consider `O=[N+]([O-])c1cc([N+](=O)[O-])c(-c2cnn(-c3ccccc3)c2)c([N+](=O)[O-])c1`, for which the inhibition is inactive: 8.27%.

Take `Clc1n[nH]nc1-c1nn[nH][15n]1`: the inhibition was inactive: -1.16%.

Regarding `CC(C)(C)C(=O)NC(Sc1ncccn1)C(Cl)(Cl)Cl` (stereo unspecified), the inhibition is inactive: 1.16%.

Turning to `CCOP(=O)(Nc1ccc(C)cn1)OCC`, the inhibition was inactive: 3.16%.

`O=P1(Nc2ccccn2)COc2ccccc2OC1`: the inhibition is inactive: 3.67%.

As to `O=[N+]([O-])c1cc([N+](=O)[O-])c(-n2nnc3ccccc32)c([N+](=O)[O-])c1`, the inhibition was inactive: 1.97%.

Consider `CCOP(=O)(Nc1cccc2ccccc12)OCC`, for which the inhibition was inactive: 5.97%.

Consider `CCCOP(=S)(Nc1nc(N)cc(=O)[nH]1)OCCC`, for which the inhibition is inactive: 0.816%.

Take `Cc1ccc(C)c(NP(C)(=O)Oc2ccccc2)c1` (stereo unspecified): the inhibition was inactive: 4.75%.

Turning to `CP(=O)(Nc1cccc(Br)c1)Oc1ccccc1` (stereo unspecified), the inhibition is inactive: 1.85%.

On to `Cc1cc(C)cc(OP(C)(=O)Nc2ccccn2)c1` (stereo unspecified), for which the inhibition is inactive: 5.14%.

Consider `Cc1ccc(NCCc2c([N+](=O)[O-])cc([N+](=O)[O-])cc2[N+](=O)[O-])cc1`, for which the inhibition was inactive: 0.801%.

Turning to `CCOC(=O)c1ccc(NP(C)(=O)Oc2cc(C)cc(C)c2)cc1` (stereo unspecified), the inhibition was inactive: 5.84%.

Regarding `CC1C=CCP(=O)(Oc2ccccc2)O1` (stereo unspecified), the inhibition was inactive: 2.41%.

Turning to `O=[As](O)(c1cccc(O)c1)c1cccc(O)c1`, the inhibition is inactive: -0.571%.

With `Cc1cccc(OCC(=O)OC2CN3CCC2CC3)c1` (stereo unspecified), the inhibition was inactive: 0.787%.

On to `Cc1cc(C)cc(OP(C)(=O)Nc2ccc(C)cc2C)c1` (stereo unspecified), for which the inhibition was inactive: -0.968%.

Take `COc1cc(C(=O)NCC2(N3CCOCC3)CCCCC2)cc(Cl)c1OC(C)C`: the inhibition is inactive: 1.71%.

In the case of `O=[As](O)(O)c1cccnc1`, the inhibition was inactive: 3.47%.

As for `CS(=O)(=O)c1ccc(Cl)c(NC(=O)COC(=O)C(O)(c2ccccc2)c2ccccc2)c1`, the inhibition is inactive: 2.32%.

Take `COc1ccccc1OP(C)(=O)Nc1cccc(Br)c1` (stereo unspecified): the inhibition was inactive: 4%.

Take `O=C(OC1CN2CCC1CC2)c1ccc(Cl)cc1` (stereo unspecified): the inhibition was inactive: -1.29%.

As for `CN(C)C(=O)c1cc([N+](=O)[O-])cc2c1-c1c(cc([N+](=O)[O-])cc1[N+](=O)[O-])C2=O`, the inhibition is inactive: 13.5%.

Consider `O=[N+]([O-])c1ccc2c(c1)nnn2O`, for which the inhibition is inactive: -1.35%.

`CC1=NCCc2c1[nH]c1ccccc21.O=[N+]([O-])c1cc([N+](=O)[O-])c(O)c([N+](=O)[O-])c1`: the inhibition was inactive: 4.82%.

As to `Cc1ccc(NC(=NP(=O)(N2CCOCC2)N2CCOCC2)N2CCOCC2)cc1`, the inhibition is inactive: -0.0921%.

Regarding `N#CCCN(C(=O)COC(=O)C(O)(c1ccccc1)c1ccccc1)c1ccc(F)cc1`, the inhibition was inactive: -0.171%.

`CCOP1(=S)c2c(C)nn(CCC#N)c2N=C(c2ccc(F)cc2)N1C` (stereo unspecified): the inhibition is inactive: 3.28%.

`NC(=O)Nc1ccc([As](=O)(O)O)cc1`: the inhibition is inactive: -1.22%.

With `Nc1ccccc1[As](=O)(O)c1ccccc1`, the inhibition is inactive: 2.06%.

Turning to `O=C(O)COc1ccc([As](=O)(O)O)cc1[N+](=O)[O-]`, the inhibition is inactive: 5.11%.

For the compound `CCOP1(=S)c2c(C)nn(CCC#N)c2N=C(c2ccccc2F)N1C` (stereo unspecified), the inhibition is inactive: -4.57%.

Turning to `O=C(O)c1cccc(Nc2c([N+](=O)[O-])cc([N+](=O)[O-])cc2[N+](=O)[O-])c1`, the inhibition is inactive: 5.92%.

Take `O=P(Nc1nccs1)(c1ccccc1)c1nc2ccccc2s1` (stereo unspecified): the inhibition was inactive: 1.18%.

With `O=P(Nc1nccs1)(Oc1ccccc1)Oc1ccccc1`, the inhibition is inactive: 6.26%.

Consider `Cc1cc(C)cc(OP(C)(N)=O)c1` (stereo unspecified), for which the inhibition was inactive: 1.45%.

For `O=C(OC1CN2CCC1CC2)c1cccc2[nH]cnc12` (stereo unspecified), the inhibition is inactive: 0.471%.

For the compound `CCN(CC)C(=S)SC(NC=O)C(Cl)(Cl)Cl` (stereo unspecified), the inhibition was inactive: 9.65%.

On to `COc1ccccc1OP(C)(=O)Nc1cc(Cl)ccc1C` (stereo unspecified), for which the inhibition is inactive: 5.5%.

Consider `CC(C)NC(=O)NP(=O)(Oc1ccccc1)Oc1ccccc1`, for which the inhibition is inactive: -1.69%.

Turning to `O=[N+]([O-])c1cc([N+](=O)[O-])c(-c2ccn[nH]2)s1`, the inhibition is inactive: 51.8%.

With `COc1ccc(OP(C)(=O)Nc2cccc(F)c2)cc1` (stereo unspecified), the inhibition was inactive: 1.89%.

Consider `COc1ccccc1OP(C)(=O)Nc1ccc(C)cc1` (stereo unspecified), for which the inhibition was inactive: 5.4%.

Consider `CC(C)c1ccc(OP(=O)(Nc2ccccn2)Oc2ccccc2F)cc1` (stereo unspecified), for which the inhibition was inactive: 7.7%.

Regarding `Cc1ccc(NP(C)(=O)Oc2ccccc2)c(C)c1` (stereo unspecified), the inhibition was inactive: 3.45%.

As to `CCOC(=O)c1ccc(NP(C)(=O)Oc2ccccc2)cc1` (stereo unspecified), the inhibition was inactive: -2.71%.

Take `COc1ccc2c(c1O)-c1c(O)c(OC)cc3c1C(C2)[N+](C)(C)CC3.O=[N+]([O-])c1cc([N+](=O)[O-])c([O-])c([N+](=O)[O-])c1[O-]` (stereo unspecified): the inhibition is inactive: 3.15%.

For the compound `ClCCSc1nnc(-c2cccnc2)o1`, the inhibition is inactive: 4.42%.

Regarding `Cc1ccc2nc3c(c(C)c2c1)CC(C(Cl)Cl)S3` (stereo unspecified), the inhibition is inactive: 6.99%.

As to `O=[N+]([O-])c1ccc2c(c1)C=Nc1ccccc1O2`, the inhibition was inactive: 8.43%.

Regarding `CC(C)(C)c1ccc(OP(C)(=O)Nc2ccc(SC(F)(F)F)cc2)cc1` (stereo unspecified), the inhibition is inactive: -16.7%.

`Cc1ccc(OP(=O)(Nc2ccc([N+](=O)[O-])cn2)Oc2ccc(C)cc2)cc1`: the inhibition was inactive: 1.66%.

For the compound `Cc1cccc(C)c1OP(C)(N)=O` (stereo unspecified), the inhibition was inactive: 0.787%.

For the compound `C[As](=O)(O)c1cccc(C(=O)O)c1`, the inhibition was inactive: 3.67%.

Take `O=[As](O)(c1ccc(O)cc1)c1ccccc1O`: the inhibition is inactive: 0.755%.
